These are literature values, as cited in paper PMC7094737 (Journal of Molecular Biology, 2008).

In the series the target is SARS macro (Severe acute respiratory syndrome coronavirus, UniProt P0C6X7). The following applies: read-out: affinity for ADP-ribose; cited from earlier work.

For ADP-ribose, the Kd is roughly 24 µM.
